Broadly, the IC50 is the concentration needed to halve the response being measured. A word on the EC50: it is the concentration at which the effect is half-maximal.

The chains behind the UniProt entries cited, without tags or fusion partners. Residues count along the entry.
UniProt P27958, 1027-1657 limits assumed: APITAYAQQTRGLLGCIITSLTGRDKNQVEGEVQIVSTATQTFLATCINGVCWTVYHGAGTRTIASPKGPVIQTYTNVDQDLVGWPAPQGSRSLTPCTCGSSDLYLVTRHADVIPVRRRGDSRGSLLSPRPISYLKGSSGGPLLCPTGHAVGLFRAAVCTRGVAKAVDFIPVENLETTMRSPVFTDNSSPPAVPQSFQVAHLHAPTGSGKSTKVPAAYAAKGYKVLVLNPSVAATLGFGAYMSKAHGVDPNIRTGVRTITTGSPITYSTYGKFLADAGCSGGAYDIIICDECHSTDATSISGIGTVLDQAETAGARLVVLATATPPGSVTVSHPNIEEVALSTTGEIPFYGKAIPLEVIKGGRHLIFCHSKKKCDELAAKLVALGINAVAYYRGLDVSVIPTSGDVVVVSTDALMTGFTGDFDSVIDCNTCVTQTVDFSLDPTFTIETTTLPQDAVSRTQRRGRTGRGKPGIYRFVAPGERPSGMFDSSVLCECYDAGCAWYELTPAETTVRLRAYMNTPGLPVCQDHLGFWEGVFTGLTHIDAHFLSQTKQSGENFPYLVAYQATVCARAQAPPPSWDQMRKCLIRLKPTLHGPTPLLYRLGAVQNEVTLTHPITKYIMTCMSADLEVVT

In one experiment the target is NS3-NS4A protease (Hepatitis C virus genotype 1a, UniProt P27958). Kind of experiment: NS3-NS4A protease assay (NS3 inhibition assay, RETS1 substrate), Section B. The class given is biochemical. The settings on record: read-out: NS3-NS4A IC50.
The test system of experiment [1] is HCV sub-genomic replicon, GS4.3. Kind of experiment: Quantitation by ELISA of NPTII in the HCV sub-genomic replicon, GS4.3, Section B. The class given is cell-based. The settings on record: read-out: Replicon EC50; GS4.3 cells, 72 h incubation. As to the method:
Quantitation by ELISA of the Selectable Marker Protein, Neomycin Phosphotransferase II (NPTII) in the HCV Sub-Genomic Replicon, GS4.3
The HCV sub-genomic replicon (1377/NS3-3′, accession No. AJ242652), stably maintained in HuH-7 hepatoma cells, was created by Lohmann et al. Science 285: 110-113 (1999). The replicon-containing cell culture, designated GS4.3, was obtained from Dr. Christoph Seeger of the Institute for Cancer Research, Fox Chase Cancer Center, Philadelphia, Pa. […]
24 hours prior to the assay, GS4.3 cells were collected, counted, and plated in 96-well plates (Costar 3585) at 7500 cells/well in 100 μl standard maintenance medium (above) and incubated in the conditions above. […]
An NPTII ELISA kit was obtained from AGDIA, Inc. (Compound direct ELISA test system for Neomycin Phosphotransferase II, PSP 73000/4800). […] Plates were read at 450 nm on a Molecular Devices Versamax plate reader.
Inhibitor effect was expressed as a percentage of DMSO-treated control signal, and inhibition curves were calculated using a 4-parameter equation: y=A+((B−A)/(1+((C/x)^D))), where C is half-maximal activity or EC50.

As for `CC(C)[Si](O[C@@H]1C[C@H]2C(=O)N[C@]3(C(=O)NS(=O)(=O)C4CC4)C[C@H]3/C=C\CCCCC[C@H](NC(=O)OC(C)(C)C)C(=O)N2C1)(C(C)C)C(C)C`, at NS3-NS4A protease, the IC50 was less than 0.1 µM. Also, the EC50 in experiment [1] was less than 1 µM.

(Values after patent US7491794B2, “Macrocyclic compounds as inhibitors of viral replication” (Intermune, Inc., priority 2003, dated 2009).)
